Data as given in PubChem BioAssay AID1259414 (Drosophila RNAi Screening Center, 2018)
The screen tested about 24,000 reagents; below is an unselected part of those with a known target gene and a result. In the full data, about 1,210 (5%) got an active call. 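Inactive calls also include excluded dsRNAs with several or no targets, genes unexpressed in JW18, and well A1, regardless of score.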 Unmarked entries are inactive.

Screen: 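Genome-wide screen for host control of endosymbiont load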 (primary screen)
Cell system: Drosophila JW18 cells infected with Wolbachia
Reagent: long dsRNA against Drosophila genes, 0.25 µg dsRNA per well of a 384-well plate
Duration: 5 days
Treatment: cells persistently infected with Wolbachia before knock-down; no added drug
Detection: 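Automated imaging of bacterial rRNA staining divided by host cell count, reported as plate-normalised robust z-score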
Direction: Wolbachia per cell robust z: higher = more Wolbachia per host cell than the plate typical
Active means: 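Hit when robust z is 1.5 or more, or -1.5 or less, in at least two of three replicates; excludes dsRNAs with several or no targets, genes not expressed in JW18 and well A1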

predicted target | DRSC id | Wolbachia per cell robust z, rep 1 | Wolbachia per cell robust z, rep 2 | Wolbachia per cell robust z, rep 3
CG15046 | DRSC19622 | 1.12 | -0.417 | -0.319
CG31231 | DRSC13308 | -0.852 | -0.821 | -0.119
CG31231 | DRSC28440 | -0.0975 | -0.242 | -0.723
CG13085 | DRSC02189 | -0.0138 | -1.13 | 0.532
CG13085 | DRSC28099 | 0.399 | 0.618 | -0.478
ninaE | DRSC17014 | -0.785 | -0.292 | -0.875
ninaE | DRSC25724 | -0.354 | 1.25 | 0.874
CG34283 | DRSC13313 | -1.08 | -0.00761 | 0.0834
CG13423 | DRSC06386 | -0.884 | -0.902 | -0.622
CG8301 | DRSC16405 | -0.837 | 0.0412 | -0.964
CG8301 | DRSC28170 | -0.41 | 0.668 | 1.72
melt | DRSC11367 | -0.187 | -3.39 | 0.147
CG15742 | DRSC19708 | -0.0643 | 0.0551 | 0.743
CG15742 | DRSC28195 | 0.0982 | 0.682 | 0.497
CG5506 | DRSC10511 | -2.14 | -0.973 | 0.423
CG14613 | DRSC20625 | 1.74 | 0.842 | 0.792
CG14613 | DRSC27260 | 0.291 | 1.25 | 0.885
Dif | DRSC03316 | -1.73 | -0.28 | -0.26
CG16799 | DRSC06626 | 0.887 | 0.632 | 0.779
CG16799 | DRSC21553 | 0.681 | 0.143 | -1.34
Dcr-1 | DRSC15646 | 0.000478 | -0.772 | -0.427
Dcr-1 | DRSC27421 | 0.767 | 0.0862 | 0.497
RabGGTb | DRSC00804 | 0.0609 | -0.845 | -0.362
RabGGTb | DRSC29549 | 0.845 | 1.12 | 1.64
CG42524 | DRSC41348 | -0.751 | -0.0218 | -1.76
lov | DRSC04665 | -0.326 | -0.195 | -5.18
lov | DRSC27208 | 0.717 | -0.231 | 0.963
CG3358 | DRSC04992 | 0.152 | 0.414 | -0.167
spg | DRSC14373 | 0.341 (active) | -3.12 | -6.24
spg | DRSC14881 | 0.834 | 0.15 | -0.608
CG9289 | DRSC03187 | 0.0456 | -2.64 | -1.48
CG9289 | DRSC28115 | -0.149 | -0.345 | -0.187
CG11883 | DRSC06094 | -0.524 | -0.569 | -0.0927
CG11883 | DRSC41434 | 0.822 | -0.764 | -0.677
Ptp69D | DRSC11258 | 0.388 | -0.199 | -1.28
Mo25 | DRSC11224 | -2.09 (active) | -2.1 | 0.637
CG12991 | DRSC19511 | -0.0332 | -2.45 | 0.509
CG12991 | DRSC28165 | -0.824 | -1.73 | -1.49
CG15084 | DRSC06515 | 0.268 | -0.0186 | 0.35
CG15084 | DRSC21403 | 0.952 | -0.118 | 0.337
CG15084 | DRSC27128 | 0.0989 | -0.54 | -1.26
N | DRSC18685 | -1.15 | -1.63 | -0.879
N | DRSC39108 | -1.18 | -0.0693 | 1.4
lncRNA:Hsromega | DRSC22875 | -0.318 | -1.15 | -0.31
lncRNA:Hsromega | DRSC26039 | 0.016 | 0.512 | 0.519
AGO2 | DRSC10847 | 0.505 | -0.213 | 0.508
AGO2 | DRSC40785 | -0.0743 | -0.136 | 1.12
CG14300 | DRSC14779 | -0.527 | 0.81 | -0.00407
Traf6 | DRSC18725 | -0.866 | -0.882 | 0.279
CG14668 | DRSC12254 | 0.00194 | 0.185 | 1.09
CG9095 | DRSC20150 | 0.395 | -3.69 | -2.23
Ak6 | DRSC07274 | -0.613 | -0.168 | -2.33
Ak6 | DRSC41364 | -2.68 (active) | -0.723 | -2.44
Cep89 | DRSC07110 | 0.246 | -0.257 | 0.588
Cep89 | DRSC29382 | 1.11 | -0.203 | -0.201
atl | DRSC16089 | 2.22 | 1.01 | -0.715
atl | DRSC26241 | 2.31 (active) | 1.4 | 2.28
AnxB9 | DRSC14111 | -0.396 | 0.196 | 0.0915
AnxB9 | DRSC25715 | -3.21 | 2.22 | 0.453
AnxB9 | DRSC38940 | -3.04 | -0.879 | -1.27
EMC1 | DRSC15455 | 0.15 | -0.0864 | -1.24
mdlc | DRSC15690 | 1.56 (active) | 2.01 | -0.624
mdlc | DRSC28632 | 0.482 | 0.999 | 1.18
NKCC | DRSC12140 | 0.16 | -0.602 | -0.395
NKCC | DRSC12311 | -1.17 | 0.61 | 1.08
Pdk1 | DRSC08682 | 2.35 (active) | 1.62 | 1.36
Pdk1 | DRSC27069 | 0.138 (active) | 1.94 | 1.69
Psc | DRSC07518 | -1.41 (active) | -1.97 | -4.18
Psc | DRSC29016 | 0.939 | 0.86 | 1.03

Sorted by “Wolbachia per cell robust z, rep 1” (high to low): some entries from above.
predicted target | DRSC id | Wolbachia per cell robust z, rep 1 | Wolbachia per cell robust z, rep 2 | Wolbachia per cell robust z, rep 3
CG14613 | DRSC20625 | 1.74 | 0.842 | 0.792
CG16799 | DRSC06626 | 0.887 | 0.632 | 0.779
RabGGTb | DRSC29549 | 0.845 | 1.12 | 1.64
Dcr-1 | DRSC27421 | 0.767 | 0.0862 | 0.497
CG16799 | DRSC21553 | 0.681 | 0.143 | -1.34
CG14613 | DRSC27260 | 0.291 | 1.25 | 0.885
CG15742 | DRSC28195 | 0.0982 | 0.682 | 0.497
RabGGTb | DRSC00804 | 0.0609 | -0.845 | -0.362
Dcr-1 | DRSC15646 | 0.000478 | -0.772 | -0.427
Dif | DRSC03316 | -1.73 | -0.28 | -0.26
CG5506 | DRSC10511 | -2.14 | -0.973 | 0.423
